## HIV-1 5' UTR: effect of mutations on RNA dimer formation

Sequence of the HIV-1 NL4-3 5' RNA, positions 1 to 437, as numbered in the source:
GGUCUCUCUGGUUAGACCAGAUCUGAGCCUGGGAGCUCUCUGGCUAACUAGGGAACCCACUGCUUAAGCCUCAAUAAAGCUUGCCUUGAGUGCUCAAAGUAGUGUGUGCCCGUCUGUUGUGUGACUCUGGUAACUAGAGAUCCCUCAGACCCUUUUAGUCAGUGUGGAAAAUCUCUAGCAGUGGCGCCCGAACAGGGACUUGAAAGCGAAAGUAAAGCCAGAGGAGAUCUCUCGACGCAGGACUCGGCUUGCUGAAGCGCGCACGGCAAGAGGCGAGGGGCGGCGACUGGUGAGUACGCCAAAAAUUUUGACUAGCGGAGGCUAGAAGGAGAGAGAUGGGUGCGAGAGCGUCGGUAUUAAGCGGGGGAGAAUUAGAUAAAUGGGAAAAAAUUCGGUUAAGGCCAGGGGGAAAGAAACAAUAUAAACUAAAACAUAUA

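Mutant RNA libraries with 1G, 2G or 3G starts, with or without cap, were folded at 37 °C for 30 min. High salt was 300 mM KCl and 5 mM MgCl2, low salt 40 mM KCl and 0.1 mM MgCl2; monomer and dimer were parted on a native gel. Mutation frequencies in the two bands give Kdimer.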

Values are log2 Kdimer, the median over the changes at each position: higher means that changes there hinder dimer formation, below 0 that they favour it.
One numbering serves 1G, 2G and 3G.
A position is written with its base.

| position | domain | 3G uncapped high-salt | 3G capped low-salt |
|---|---|---|---|
| A21 | TAR | 0.13 | -0.10 |
| U22 | TAR | 0.05 | 0.10 |
| C23 | TAR | 0.00 | -0.07 |
| U24 | TAR | 0.05 | -0.03 |
| G25 | TAR | -0.06 | -0.40 |
| A26 | TAR | -0.28 | -0.07 |
| G27 | TAR | -0.90 | -0.99 |
| C28 | TAR | -0.45 | -0.08 |
| C29 | TAR | 0.52 | 0.09 |
| U30 | TAR | -0.05 | -0.04 |
| G31 | TAR | 0.12 | -0.20 |
| G32 | TAR | 0.10 | -0.03 |
| G33 | TAR | 0.01 | 0.07 |
| A34 | TAR | 0.16 | 0.13 |
| G35 | TAR | -0.52 | -0.53 |
| C36 | TAR | -0.40 | -0.41 |
| U37 | TAR | -0.36 | -0.22 |
| C38 | TAR | -0.35 | -0.01 |
| U39 | TAR | 0.07 | 0.04 |
| C40 | TAR | 0.04 | -0.17 |
| U41 | TAR | -0.08 | -0.19 |
| G42 | TAR | -0.38 | -0.35 |
| G43 | TAR | -0.19 | -0.08 |
| C44 | TAR | 0.07 | 0.02 |
| U45 | TAR | 0.08 | -0.12 |
| A46 | TAR | -0.05 | -0.16 |
| A47 | TAR | -0.04 | -0.06 |
| C48 | TAR | 0.17 | -0.61 |
| U49 | TAR | 0.09 | -0.03 |
| A50 | TAR | 0.03 | -0.23 |
| G51 | TAR | -0.02 | -0.01 |
| G52 | TAR | 0.01 | 0.04 |
| G53 | TAR | -0.14 | -0.12 |
| A54 | TAR | -0.18 | -0.52 |
| A55 | TAR | 0.04 | 0.09 |
| C56 | TAR | -0.09 | 0.12 |
| C57 | TAR | -0.44 | -0.81 |
| C58 | PolyA | 0.17 | 0.20 |
| A59 | PolyA | 0.25 | 0.04 |
| C60 | PolyA | 0.22 | 0.19 |
| U61 | PolyA | 0.27 | 0.00 |
| G62 | PolyA | 0.20 | 0.05 |
| C63 | PolyA | 0.24 | -0.13 |
| U64 | PolyA | 0.25 | -0.12 |
| U65 | PolyA | 0.34 | 0.10 |
| A66 | PolyA | 0.17 | -0.49 |
| A67 | PolyA | -0.02 | -0.08 |
| G68 | PolyA | 0.32 | -0.50 |
| C69 | PolyA | -0.01 | -0.29 |
| C70 | PolyA | -0.13 | -0.17 |
| U71 | PolyA | 0.12 | -0.05 |
| C72 | PolyA | 0.12 | -0.10 |
| A73 | PolyA | 0.06 | -0.27 |
| A74 | PolyA | 0.06 | 0.00 |
| U75 | PolyA | 0.17 | -0.03 |
| A76 | PolyA | 0.31 | 0.04 |
| A77 | PolyA | 0.02 | 0.20 |
| A78 | PolyA | -0.07 | -0.11 |
| G79 | PolyA | 0.24 | 0.54 |
| C80 | PolyA | -0.06 | 0.32 |
| U81 | PolyA | 0.07 | 0.37 |
| U82 | PolyA | 0.10 | 0.18 |

The last 8 entries again:

{"position": "U75", "domain": "PolyA", "3G uncapped high-salt": 0.17, "3G capped low-salt": -0.03}
{"position": "A76", "domain": "PolyA", "3G uncapped high-salt": 0.31, "3G capped low-salt": 0.04}
{"position": "A77", "domain": "PolyA", "3G uncapped high-salt": 0.02, "3G capped low-salt": 0.20}
{"position": "A78", "domain": "PolyA", "3G uncapped high-salt": -0.07, "3G capped low-salt": -0.11}
{"position": "G79", "domain": "PolyA", "3G uncapped high-salt": 0.24, "3G capped low-salt": 0.54}
{"position": "C80", "domain": "PolyA", "3G uncapped high-salt": -0.06, "3G capped low-salt": 0.32}
{"position": "U81", "domain": "PolyA", "3G uncapped high-salt": 0.07, "3G capped low-salt": 0.37}
{"position": "U82", "domain": "PolyA", "3G uncapped high-salt": 0.10, "3G capped low-salt": 0.18}

Source: Ye et al. 2022 (doi:10.1038/s41594-022-00746-2), supplementary data.